# Legend:
# Sequences of proteins named here, by UniProt entry; tags and fusion partners are left off.
# UniProt P35372, whole entry, looked up: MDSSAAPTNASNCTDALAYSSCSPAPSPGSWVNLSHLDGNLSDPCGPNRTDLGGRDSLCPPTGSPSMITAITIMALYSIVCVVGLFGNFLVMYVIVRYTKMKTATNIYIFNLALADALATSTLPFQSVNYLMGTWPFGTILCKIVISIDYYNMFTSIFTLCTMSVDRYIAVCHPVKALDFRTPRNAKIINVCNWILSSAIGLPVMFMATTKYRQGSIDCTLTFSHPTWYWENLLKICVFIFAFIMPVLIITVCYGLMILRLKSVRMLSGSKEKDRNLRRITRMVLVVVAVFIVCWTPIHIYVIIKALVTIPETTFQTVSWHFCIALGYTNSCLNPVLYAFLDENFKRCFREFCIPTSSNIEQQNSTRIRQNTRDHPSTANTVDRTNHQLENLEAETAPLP
# [1] = target: T1, human mu opioid receptor (MOR1) in HEK-MOR cells (Homo sapiens, UniProt P35372); assay: DMR profiling of ligands at 10 µM in HEK-MOR cells (assay B); format: cell-based; details: ligand alone (10 µM in profiling), untreated / 0.1% DMSO-treated cells
# [2] = target: T1, human mu opioid receptor (MOR1) in HEK-MOR cells; assay: iPOT similarity analysis of DMR under 13 assay conditions
smiles,measurement,setting,value
"CN(C(=O)Cc1ccc(Cl)c(Cl)c1)[C@H](CN1CCCC1)c1ccccc1 [ICI 199,441]",DMR produced by ligand in HEK-MOR cells,[1],P-DMR
same,pharmacology at the MOR concluded from DMR profiling,[2]; HEK-MOR cells,agonist for the MOR
same,"subcluster in heat map (super cluster 1 antagonists, 2 agonists)","[2]; Ward hierarchical clustering of 13 DMR profiles, ligand 10 µM",subcluster 2.1
